Measured values from several laboratories, pooled; numbers as filed in NIAID ChemDB.

All rows: target-level tests

An empty or dashed field is not shown.

{"SMILES": "C/C(=N\\NC(=S)NNC(=S)Nc1ccccc1I)c1ccccn1", "target": "Ribonucleotide reductase", "organism": "Herpes simplex virus 1", "measure": "IC50", "value": ">5 µM"}
{"SMILES": "CCN(C(=O)C(C)(C)Nc1nc2ccc(NC(=O)OC(C)(C)C)c(C)c2c(=O)o1)c1cccnc1", "target": "Protease", "organism": "Herpes simplex virus 1", "measure": "IC50", "value": "0.7 µM"}
{"SMILES": "C/C(=N\\NC(=S)NNC(=S)Nc1cccc(C)c1)c1ccccn1", "target": "Ribonucleotide reductase", "organism": "Herpes simplex virus 1", "measure": "IC50", "value": ">5 µM"}
{"SMILES": "O=c1[nH]c(=O)n([C@H]2C[C@H](O)[C@@H](CO)O2)cc1/C=C/Br", "strain or isolate": "KOS", "target": "DTHD kinase", "organism": "Herpes simplex virus 1", "measure": "Ki", "value": "0.24 µM"}
{"SMILES": "Cc1c(NC(=O)OC(C)(C)C)ccc2nc(N(CCCc3ccccc3)C(=O)NCc3cccnc3)oc(=O)c12", "target": "Protease", "organism": "Herpes simplex virus 1", "measure": "IC50", "value": ">20 µM"}
{"SMILES": "COc1ccccc1NC(=S)NNC(=S)N/N=C(\\C)c1ccccn1", "target": "Ribonucleotide reductase", "organism": "Herpes simplex virus 1", "measure": "IC50", "value": ">5 µM"}
{"SMILES": "CC[C@@H](NC(=O)[C@@H](NC(=O)[C@@H](CC(=O)[C@@H](NC(=O)NC1[C@H](C)CCC[C@@H]1C)C(C)(C)C)CC(=O)C(C)(C)C)C1(C(=O)O)CCCC1)C(C)(C)C", "read by": "radioligand binding / binding", "target": "Ribonucleotide reductase", "organism": "Herpes simplex virus 1", "measure": "IC50", "value": "<0.001 µM"}
{"SMILES": "COc1ccc([N+](=O)[O-])cc1NC(=S)NNC(=S)N/N=C(\\C)c1ccccn1", "target": "Ribonucleotide reductase", "organism": "Herpes simplex virus 1", "measure": "IC50", "value": ">5 µM"}
{"SMILES": "Cc1c(NC(=O)OC(C)(C)C)ccc2nc(N3CCCC3(OCc3ccccc3)C(=O)N(C)CCc3ccncc3)oc(=O)c12", "target": "Protease", "organism": "Herpes simplex virus 1", "measure": "IC50", "value": ">20 µM"}
{"SMILES": "O=c1[nH]c(=O)n([C@@H]2O[C@H](CO)[C@@H](O)[C@@H]2F)cc1/C=C/Br", "strain or isolate": "KOS", "target": "DTHD kinase", "organism": "Herpes simplex virus 1", "measure": "Ki", "value": "0.67 µM"}
{"SMILES": "C/C=C/c1cn([C@@H]2O[C@H](CO)[C@@H](O)[C@@H]2O)c(=O)[nH]c1=O", "strain or isolate": "C42", "target": "Thymidine kinase", "tested at": "10 µM", "organism": "Herpes simplex virus 1", "measure": "inhibition", "value": "40%"}
{"SMILES": "CC(C)C/C(=N\\NC(=S)NNC(=S)Nc1ccccc1Cl)c1ccccn1", "target": "Ribonucleotide reductase", "organism": "Herpes simplex virus 1", "measure": "IC50", "value": ">5 µM"}
{"SMILES": "C#C[C@H]1O[C@@H](n2cc(C)c(=O)[nH]c2=O)C[C@@H]1O", "strain or isolate": "TR7", "target": "Thymidine kinase", "organism": "Herpes simplex virus 1", "measure": "IC50", "value": "3 µM"}
{"SMILES": "Cc1cn([C@@H]2O[C@H](CO)[C@@H](O)[C@@H]2Cl)c(=O)nc1N", "strain or isolate": "KOS", "target": "DTHD kinase", "organism": "Herpes simplex virus 1", "measure": "Ki", "value": "15.88 µM"}
{"SMILES": "O=c1[nH]c(=O)n([C@@H]2O[C@H](CO)[C@@H](O)[C@@H]2O)cc1/C=C/Br", "strain or isolate": "C42", "target": "Thymidine kinase", "tested at": "5 µM", "organism": "Herpes simplex virus 1", "measure": "inhibition", "value": "61%"}
{"SMILES": "CC[C@@H](NC(=O)[C@@H](NC(=O)[C@@H](CC(=O)[C@@H](NC(=O)NC1[C@H](C)CCC[C@@H]1C)C(C)(C)C)CC(=O)N1CCCC1)C1(C(=O)O)CCCC1)C(C)(C)C", "read by": "radioligand binding / binding", "target": "Ribonucleotide reductase", "organism": "Herpes simplex virus 2", "measure": "IC50", "value": "<0.001 µM"}
{"SMILES": "C/C(=N\\NC(=S)NNC(=S)NC12CC3CC(CC(C3)C1)C2)c1ccccn1", "target": "Ribonucleotide reductase", "organism": "Herpes simplex virus 1", "measure": "IC50", "value": ">5 µM"}
{"SMILES": "CCCC(CCC)NC(=O)N[C@H](C(=O)C[C@@H](CC(=O)C(C)(C)C)C(=O)N[C@H](C(=O)N[C@H](CC)C(C)(C)C)C1(C(=O)O)CCCC1)C(C)(C)C", "read by": "radioligand binding / binding", "target": "Ribonucleotide reductase", "organism": "Herpes simplex virus 2", "measure": "IC50", "value": "<0.001 µM"}
{"SMILES": "C/C(=N\\NC(=S)NNC(=S)NCCN1CCOCC1)c1ccccn1", "target": "Ribonucleotide reductase", "organism": "Herpes simplex virus 1", "measure": "IC50", "value": ">5 µM"}
{"SMILES": "Nc1nc(=O)n([C@@H]2O[C@H](CO)[C@@H](O)[C@@H]2F)cc1I", "strain or isolate": "333", "target": "DTHD kinase", "organism": "Herpes simplex virus 2", "measure": "Ki", "value": "6.59 µM"}
{"SMILES": "Nc1nc(-c2ccc(NC(=O)CN(Cc3ccncc3)C(=O)C3CCCCC3)cc2)cs1", "target": "Primase", "organism": "Herpes simplex virus 1", "measure": "IC50", "value": "0.043 µM"}
{"SMILES": "C/C=C/c1cn([C@H]2C[C@H](O)[C@@H](CO)O2)c(=O)[nH]c1=O", "strain or isolate": "C42", "target": "Thymidine kinase", "tested at": "10 µM", "organism": "Herpes simplex virus 1", "measure": "inhibition", "value": "68%"}
{"SMILES": "Cc1c(NC(=O)OC(C)(C)C)ccc2nc(N(CC(C)C)C(=O)NCc3ccncc3)oc(=O)c12", "target": "Protease", "organism": "Herpes simplex virus 1", "measure": "IC50", "value": ">20 µM"}
{"SMILES": "C/C(=N\\NC(=S)NNC(=S)Nc1ccc(C)cc1)c1ccccn1", "target": "Ribonucleotide reductase", "organism": "Herpes simplex virus 1", "measure": "IC50", "value": ">5 µM"}
{"SMILES": "Nc1nc2c(ncn2CC[C@@H](CO)COP(=O)(O)OP(=O)(O)OP(=O)(O)O)c(=O)[nH]1", "target": "DNA polymerase", "organism": "Herpes simplex virus 2", "measure": "Ki", "value": "5.8 µM"}

Repeating the final 2 entries:

SMILES,strain or isolate,read by,target,tested at,organism,measure,value
C/C(=N\NC(=S)NNC(=S)Nc1ccc(C)cc1)c1ccccn1,-,-,Ribonucleotide reductase,-,Herpes simplex virus 1,IC50,>5 µM
Nc1nc2c(ncn2CC[C@@H](CO)COP(=O)(O)OP(=O)(O)OP(=O)(O)O)c(=O)[nH]1,-,-,DNA polymerase,-,Herpes simplex virus 2,Ki,5.8 µM

Percent inhibition refers to the dose given; in toxicity tests it is the harm to the cells. Conditions beyond the fields shown may differ between rows. ICn: concentration for n% inhibition.